Pooled drug test results. Numbers come from NIAID ChemDB, via PubChem.

Shared fields: target-level tests; species: HIV-1; target: Protease; measure: IC50

Conditions beyond the fields shown may differ between rows.

SMILES,read by,setting,value
O=C1c2ccccc2C(=O)c2ccccc21,fluorescence,-,106 µM
CC(C)(C)OC(=O)N[C@@H](Cc1ccccc1)[C@H](O)CNC[C@@H](O)[C@H](Cc1ccccc1)NC(=O)C(CCO)C(C)(C)C,HPLC,pH 5.5,<10 µM
CC(C)[C@H](NC(=O)OCc1ccccc1)C(=O)N[C@@H](Cc1ccccc1)[C@H](O)[C@H](Cc1ccccc1)NC(=O)[C@@H](NC(=O)OCc1cccnc1)C(C)C,fluorescence,-,<0.005 µM
Cc1cccc(N2CCN(Cc3cn([C@@H](Cc4ccccc4)[C@H](Cc4ccccc4)NC(=O)OC4CCCC4)nn3)CC2C)c1,fluorescence,-,<5 µM
CN(C)[C@@H]1C(=O)C(C(N)=O)=C(O)[C@@]2(O)C(=O)C3=C(O)c4c(O)cccc4[C@@](C)(O)[C@H]3C[C@@H]12,fluorescence,-,100 µM
CC(C)(C)OC(=O)N[C@@H](Cc1ccccc1)[C@H](O)CNC[C@@H](O)[C@H](Cc1ccccc1)NC(=O)C(NC(=O)OCc1ccccc1)C(C)(C)CO,HPLC,pH 5.5,<10 µM
Cc1cc(O)c2c(c1)C(=O)c1cc(O)cc(O)c1C2=O,fluorescence,-,210 µM
CCC(C)[C@H](NC(=O)CCCCCCCCCCCCCCC(=O)N[C@@H](CC(N)=O)C(=O)N[C@@H](Cc1ccccc1)C(=O)O)C(=O)N[C@@H](Cc1ccc([N+](=O)[O-])cc1)C(N)=O,HPLC,-,0.59 µM
Cc1ccc(Cl)cc1N1CCN(Cc2cn([C@@H](Cc3ccccc3)[C@H](Cc3ccccc3)NC(=O)Oc3ccccc3)nn2)CC1,fluorescence,-,>5 µM
CC(C)[C@H](NC(=O)OCc1ccccc1)C(=O)N[C@@H](Cc1ccccc1)[C@H](O)[C@H](Cc1ccccc1)NC(=O)[C@@H](NC(=O)OCC1CCCN(C)C1)C(C)C,fluorescence,-,<0.05 µM
CCC(C)[C@H](NC(=O)CCCCCCCCCCCCCCC(=O)N[C@@H](CC(N)=O)C(=O)N[C@@H](Cc1ccccc1)C(=O)O)C(=O)N[C@@H](Cc1cc(I)c(O)c(I)c1)C(N)=O,HPLC,-,0.74 µM
Nc1cc(S(=O)(=O)O)c(O)c2c1C(=O)c1c(O)c(S(=O)(=O)O)cc(N)c1C2=O,fluorescence,-,>100 µM
NC(=O)C[C@H](NC(=O)CCCCCCCCCCCCCCC(=O)NCc1cccc(C(=O)N[C@@H](Cc2ccccc2)C(N)=O)c1)C(=O)N[C@@H](Cc1ccccc1)C(=O)O,HPLC,-,>1 µM
CC(C)(C)OC(=O)N[C@@H](Cc1ccccc1)[C@H](O)CNC[C@@H](O)[C@H](Cc1ccccc1)NC(=O)C1(O)CCCCC1(C)C,HPLC,pH 5.5,<10 µM
O=C1C(O)=C(O)C(=O)C(O)=C1O,fluorescence,-,575 µM
O=C(N[C@@H](Cc1ccccc1)[C@H](Cc1ccccc1)n1cc(CN2CCN(c3ccc(F)cc3F)CC2)nn1)OC1CCCC1,fluorescence,-,<5 µM
CC(C)(C)OC(=O)N[C@@H](Cc1ccccc1)[C@@H](O)[C@H](O)[C@H](Cc1ccccc1)NC(=O)OC(C)(C)C,fluorescence,-,<0.1 µM
CCC(C)[C@H](NC(=O)CCCCCCCCCCCCCCC(=O)N[C@@H](CC(N)=O)C(=O)N[C@@H](Cc1ccccc1)C(=O)O)C(=O)N[C@@H](Cc1ccc(F)c(F)c1)C(N)=O,HPLC,-,0.872 µM
O=C(N[C@@H](Cc1ccccc1)[C@H](Cc1ccccc1)n1cc(CN2CCC3(CC2)C(=O)NCN3c2ccccc2)nn1)OC1CCCC1,fluorescence,-,>5 µM
CC(C)(C)OC(=O)N[C@@H](Cc1ccccc1)[C@H](O)CNC[C@@H](O)[C@H](Cc1ccccc1)NC(=O)/C(=N/O)C(C)(C)C,HPLC,pH 5.5,<10 µM
CC(C)[C@H](NC(=O)Cc1cccnc1)C(=O)N[C@@H](Cc1ccccc1)[C@@H](O)[C@H](O)[C@H](Cc1ccccc1)NC(=O)[C@@H](NC(=O)Cc1cccnc1)C(C)C,fluorescence,-,<0.01 µM

ICn: concentration for n% inhibition. Blank or dashed fields: not listed here.